Compound potency records, mixed from different reports. Data source: NIAID ChemDB in PubChem.

All rows: whole-cell or culture tests; organism: Mycobacterium tuberculosis

Inhibition is in % at the dose shown (toxicity tests: loss of growth or viability). MIC50, MIC90 and the like: level of inhibition, or share of isolates inhibited. An empty or dashed field is not shown. ECn is the concentration giving n% inhibition of infection, replication or growth. Two numbers with a dash give a range or band. Conditions beyond the fields shown may differ between rows. MIC bound: limit read from a one-dose screen.

SMILES	tested at	conditions	read-out	mutations	strain or isolate	read by	value
CCOC(=O)c1ccc2c(c1)nc(-c1ccccc1)n2CCN1CCCOC1	-	-	MIC	-	H37Rv	resazurin / fluorescence	>100 µM
Fc1ccc(-c2c(C(c3ccccc3)n3ccnc3)cnn2-c2ccccc2)cc1	-	-	MIC50	-	ATCC 35820 (streptomycin-resistant)	-	≥100 µM
Cc1[nH]c(N)nc(=S)c1CCCNc1ccc(C(=O)NC(CCC(=O)O)C(=O)O)cc1	12.5 µg/mL	-	inhibition	-	H37Rv	BACTEC	-13%
NNC(=O)c1ccncc1	-	-	MIC	-	Strep-r	resazurin	50–100 µg/mL
NNC(=O)c1ccncc1	-	-	MIC	INH RIF resistant	Clinical isolate 71 A	resazurin	6.25 µg/mL
CCOC(=O)c1c(NC(=O)c2c(F)c(F)c(F)c(F)c2F)sc2c1CCNC2=O	-	-	MIC	-	H37Rv	resazurin	0.81 µM
CN1c2ccccc2CCC1CCc1ccc2c(c1)OCO2	-	-	MIC	-	MT8	-	50 µg/mL
CCOC(=O)c1nc(C)c(C(=O)OCC)nc1C	-	-	MIC bound	-	H37Rv	BACTEC	>12.5 µg/mL
CC1=C(C(=O)Nc2ccccc2)C(c2cccc([N+](=O)[O-])c2)C(C(=O)Nc2ccccc2)=C(C)N1	2.5 µg/mL	-	inhibition	-	H37Rv	-	75%
Clc1ccccc1-c1c(C(c2ccccc2)n2ccnc2)cnn1-c1ccccc1	-	-	MIC50	-	ATCC 35820 (streptomycin-resistant)	-	41.1 µM
N[C@@H]1CN(c2c(F)cc3c(=O)c(C(=O)O)cn([C@@H]4C[C@@H]4F)c3c2Cl)CC12CC2	-	-	MIC	Gyrase Glu540Asp	Clinical strain	resazurin	0.031–0.125 µg/mL
CCNC(=O)c1c(NC(=O)c2c(F)c(F)c(F)c(F)c2F)sc2c1CCN(CC)C2	-	-	EC90	-	ATCC 35822	turbidity	13 µM
CO[C@H]1/C=C/O[C@@]2(C)Oc3c(C)c(O)c4c(O)c(c5c(c4c3C2=O)NC2(CCN(CC(C)C)CC2)N=5)=NC(=O)/C(C)=C\C=C\[C@H](C)[C@H](O)[C@@H](C)[C@@H](O)[C@@H](C)[C@H](OC(C)=O)[C@@H]1C	-	-	MIC	-	TBSMI-1 (rifampin-susceptible)	-	<0.5 µg/mL
CCOC(=O)c1ccc2nc(-c3ccc([N+](=O)[O-])cc3)[nH]c2c1	-	-	EC90	-	H37Rv	resazurin / fluorescence	>100 µM
CSc1ccc(C2C(C(=O)Nc3cccc([N+](=O)[O-])c3)=C(C)NC(C)=C2C(=O)Nc2cccc([N+](=O)[O-])c2)cc1	-	-	EC50	-	H37Rv	-	<2.5 µg/mL
CO[C@H]1/C=C/O[C@@]2(C)Oc3c(C)c(O)c4c(O)c(c5c(c4c3C2=O)NC2(CCN(CC(C)C)CC2)N=5)=NC(=O)/C(C)=C\C=C\[C@H](C)[C@H](O)[C@@H](C)[C@@H](O)[C@@H](C)[C@H](OC(C)=O)[C@@H]1C	-	-	MIC	-	2218 (rifampicin-susceptible)	-	0.025 µg/mL
CCc1cc(C(N)=S)ccn1	-	-	MIC	-	90-0201 (drug-susceptible)	-	0.25 µg/mL
CCOC(=O)CCCC(NC(=O)c1ccc(N2CCN(c3c(N)nc(N)nc3NC)CC2)cc1)C(=O)OCC	6.25 µg/mL	-	inhibition	-	H37Rv	resazurin	20%
COc1ccc(CCc2cc(OC)c3ccccc3n2)cc1OC	-	-	MIC	-	MT1	-	12.5 µg/mL
O=c1[nH]c2ccc(CC(=S)N3CCOCC3)cc2s1	6.25 µg/mL	-	inhibition	-	H37Rv	resazurin	36%
CC1=C(C(=O)Nc2ccccc2Cl)C(c2ccc(Cl)cc2)C(C(=O)Nc2ccccc2Cl)=C(C)N1	2.5 µg/mL	-	inhibition	-	H37Rv	-	17%
CC(N=c1cc2n(-c3ccc(Cl)cc3)c3ccccc3nc-2cc1Nc1ccc(Cl)cc1)c1ccccc1	-	-	MIC bound	-	H37Rv	BACTEC	≤12.5 µg/mL
Clc1ccc(-n2ncc(C(c3ccccc3)n3ccnc3)c2-c2ccccc2Cl)c(Cl)c1	-	-	MIC50	-	ATCC 27294	-	6.7 µM
O=[N+]([O-])c1ccc(Cl)c(C2SCc3nc4ccccc4n32)c1	-	-	MIC bound	-	H37Rv	resazurin	>6.25 µg/mL
CCc1nc(N)nc(N)c1-c1ccc(Cl)cc1	-	-	MIC	-	H37Rv	resazurin / fluorescence	>100 µM
CCN1CCc2c(sc(NC(=O)c3c(F)c(F)c(F)c(F)c3F)c2C(=O)NC)C1	-	-	MIC	-	ATCC35838	turbidity	3 µM
C[C@@H]1CN(c2c(F)c(N)c3c(=O)c(C(=O)O)cn(C4CC4)c3c2F)C[C@H](C)N1	-	-	MIC	-	900233	-	0.2 µg/mL
CCOC(=O)c1ccc2c(c1)nc(-c1ccc(O)c(OC)c1)n2CCN1CCCC1=O	-	-	EC50	-	H37Rv	resazurin / fluorescence	>100 µM
CC/C(=N\NC(=S)SC)c1ccccn1	-	-	MIC bound	-	H37Rv	BACTEC	≤128 µg/mL
Clc1ccc(-c2c(C(c3ccccc3)n3ccnc3)cnn2-c2ccccc2)cc1	-	-	MIC90	-	ATCC 27294	-	90 µM
C[C@@H]1CN(c2c(F)c(N)c3c(=O)c(C(=O)O)cn(C4CC4)c3c2F)C[C@H](C)N1	-	-	MIC	-	Isolate 5	-	0.5 µg/mL
Clc1ccc(-c2c(C(c3ccccc3)n3ccnc3)cnn2-c2ccc(Cl)cc2)cc1	-	-	MIC50	-	ATCC 35837 (ethambutol-resistant)	-	≥100 µM
O=C1NN(C2=NNC3(C(=O)N2)c2ccccc2-c2ccccc23)C(c2ccccc2)=N/C1=C\c1ccc(O)cc1	-	-	MIC bound	-	H37Rv	resazurin	>6.25 µg/mL
NNC(=O)c1ccncc1	-	-	MIC	-	90-0201 (drug-susceptible)	-	0.04 µg/mL
CO[C@H]1/C=C/O[C@@]2(C)Oc3c(C)c(O)c4c(O)c(c(/C=N/N5CCN(C)CC5)c(O)c4c3C2=O)NC(=O)/C(C)=C\C=C\[C@H](C)[C@H](O)[C@@H](C)[C@@H](O)[C@@H](C)[C@H](OC(C)=O)[C@@H]1C	-	-	MIC50	-	ATCC 35822 (isoniazid-resistant)	-	0.6 µM
COc1cc2c(cc1OC)CN1CCc3cc(OC)c(OC)cc3[C@@H]1C2	-	-	MIC bound	-	H37Rv	BACTEC	≤128 µg/mL
C[C@@H]1CN(c2c(F)c(N)c3c(=O)c(C(=O)O)cn(C4CC4)c3c2F)C[C@H](C)N1	-	-	MIC	-	90-0201 (drug-susceptible)	-	0.1 µg/mL
O=C(NCc1ccc(N2CCN(Cc3ccccc3)CC2)cc1)c1ccc([N+](=O)[O-])o1	-	-	MIC	-	CDC1551	-	0.024 µg/mL
CCOC(=O)c1c(NC(=O)C2C=C(C(F)(F)F)C=C2C(F)(F)F)sc2c1CCCC2	-	-	MIC	-	H37Rv	resazurin	0.177 µg/mL
CCN(CC)C(=S)[S][Sn]([S]C(=S)N(CC)CC)([c]1ccccc1)[c]1ccccc1	-	-	MIC	-	PAS-R	-	1.6 µg/mL
NC[C@H]1O[C@H](O[C@H]2[C@H](O)[C@@H](O[C@H]3O[C@H](CO)[C@@H](O)[C@H](N)[C@H]3O)[C@H](N)C[C@@H]2N)[C@H](O)[C@@H](O)[C@@H]1O	-	-	MIC	-	90-0216 (drug-susceptible)	-	2 µg/mL
CCOC(=O)c1ccc2c(c1)nc(-c1ccc(N(C)C)cc1)n2CCN1CCCC1=O	-	-	EC50	-	H37Rv	resazurin / fluorescence	>100 µM
C#C/C=C\C[C@H]1O/C(=C(/Br)CC)C/C=C\C[C@H]1Cl	-	-	MIC bound	-	H37Rv	BACTEC	>12.5 µg/mL
NNC(=O)c1ccncc1	-	-	MIC90	-	ATCC 35820 (streptomycin-resistant)	-	1.1 µM
CO[C@H]1/C=C/O[C@@]2(C)Oc3c(C)c(O)c4c(O)c(c(/C=N/N5CCN(C)CC5)c(O)c4c3C2=O)NC(=O)/C(C)=C\C=C\[C@H](C)[C@H](O)[C@@H](C)[C@@H](O)[C@@H](C)[C@H](OC(C)=O)[C@@H]1C	-	-	MIC	-	Isolate 7	-	2 µg/mL
CC1COc2c(N3CCN(C)CC3)c(F)cc3c(=O)c(C(=O)O)cn1c23	-	-	MIC50	-	ATCC 35837 (ethambutol-resistant)	-	1.1 µM
Cc1ccc(CCNC(=S)SC[C@H](NC(=O)CC[C@H](N)C(=O)O)C(=O)NCC(=O)O)cc1	6.25 µg/mL	-	inhibition	-	H37Rv	resazurin	9%
C=C(C)/C=C/[C@]12C[C@H](C)[C@H]3CC[C@](C)(NC=O)[C@@H](CC[C@H]1C)[C@@H]32	32 µg/mL	-	inhibition	-	H37Rv	-	91%
NC[C@@H]1O[C@H](O[C@H]2[C@@H](O)[C@H](O[C@@H]3[C@@H](O)[C@H](N)C[C@H](N)[C@H]3O[C@H]3O[C@H](CO)[C@@H](O)C[C@H]3N)O[C@@H]2CO)[C@H](N)[C@@H](O)[C@@H]1O[C@H]1O[C@H](CO)[C@@H](O)[C@H](O)[C@@H]1O	-	-	EC50	-	H37Rv	-	25–50 µg/mL
OC1CCN2Cc3ccccc3N=C12	-	-	MIC	-	H37Rv	BACTEC	≥128 µg/mL
CCN1CCc2c(sc(NC(=O)c3c(F)c(F)c(F)c(F)c3F)c2C#N)C1	-	-	EC90	-	ATCC 35822	turbidity	22 µM
O=C(O)c1cnccn1	-	-	MIC	-	1620	-	480 µg/mL
O=C1Cc2ccccc2CCc2ccsc21	-	-	MIC bound	-	H37Rv	BACTEC	>12.5 µg/mL
NNC(=O)c1ccncc1	-	-	MIC	-	Isolate 15	-	1 µg/mL
C[C@]12CC[C@H](OS(=O)(=O)O)CC1=CC[C@@H]1[C@@H]2CC[C@]2(C)C(=O)CC[C@@H]12	6.25 µg/mL	-	inhibition	-	H37Rv	resazurin	-16%
NCC[C@H](O)C(=O)N[C@@H]1C[C@H](N)[C@@H](O[C@H]2O[C@H](CN)[C@@H](O)[C@H](O)[C@H]2O)[C@H](O)[C@H]1O[C@H]1O[C@H](CO)[C@@H](O)[C@H](N)[C@H]1O	-	-	MIC	-	90-0216 (drug-susceptible)	-	0.5 µg/mL
Nc1nc(N)c2cc(CNc3ccc(Cl)c(C(=O)NC(CC(=O)O)C(=O)O)c3)cnc2n1.O	12.5 µg/mL	-	inhibition	-	H37Rv	BACTEC	0%
CO[C@H]1/C=C/O[C@@]2(C)Oc3c(C)c(O)c4c(=O)c(c5oc6cc(N7CCN(CC(C)C)CC7)cc(=O)c6nc5c4c3=C2O)NC(=O)/C(C)=C\C=C\[C@H](C)[C@H](O)[C@@H](C)[C@@H](O)[C@@H](C)[C@H](OC(C)=O)[C@@H]1C	10 µg/mL	inside macrophages	inhibition	-	FUJII	-	97.5%
CC(C)c1cccc(C(C)C)c1NC(=O)/C(Cc1nc2ccc(Cl)cc2[nH]c1=O)=N/NC(=O)C[N+](C)(C)C.[Cl-]	-	-	MIC bound	-	H37Rv	BACTEC	>12.5 µg/mL
CCOC(=O)c1ccc2c(c1)nc(-c1ccc(N3CCOCC3)cc1)n2CCN1CCCOC1	-	-	MIC	-	H37Rv	resazurin / fluorescence	>100 µM
N#Cc1c(NC(=O)c2c(F)c(F)c(F)c(F)c2F)sc2c1CCOC2	-	-	EC90	-	ATCC35838	turbidity	5.4 µM
C[N+]1(C)N=C([O-])N(CCCCCCN2C(=O)[N+](C)(C)N=C2[O-])C1=O	-	-	MIC bound	-	H37Rv	resazurin	>6.25 µg/mL
CCOC(=O)c1ccc2c(c1)nc(-c1ccc(C(F)(F)F)cc1)n2CCN1CCCC1=O	-	-	EC50	-	H37Rv	resazurin / fluorescence	>100 µM
CO[C@H]1/C=C/O[C@@]2(C)Oc3c(C)c(O)c4c(O)c(c(/C=N/N5CCN(C)CC5)c(O)c4c3C2=O)NC(=O)/C(C)=C\C=C\[C@H](C)[C@H](O)[C@@H](C)[C@@H](O)[C@@H](C)[C@H](OC(C)=O)[C@@H]1C	-	-	MIC	-	90-0241 (drug-susceptible)	-	0.4 µg/mL
CCOC(=O)c1ccc2c(c1)nc(-c1ccc([N+](=O)[O-])cc1)n2CCN1CCCOC1	-	-	EC50	-	H37Rv	resazurin / fluorescence	>100 µM
CCOC(=O)N1CCN(c2ccc(C3CC(c4ccc([N+](=O)[O-])o4)=NO3)cc2)CC1	-	-	MIC	-	UT26	-	0.003 µg/mL
c1ccc(/C(=N/Nc2ccccn2)c2ccccn2)cc1	12.5 µg/mL	-	inhibition	-	H37Rv	BACTEC	79%
O=C(NCc1ccc(N2CCN(Cc3ccccc3)CC2)nc1)c1ccc([N+](=O)[O-])o1	-	-	MIC	-	UT18	-	0.012 µg/mL
CCOC(=O)c1c(NC(=O)c2c(F)c(F)c(F)c(F)c2F)sc2c1CCOC2	-	-	MIC	katG Y155 truncation mutant	H37Rv	turbidity	0.37 µM
CC1=C(C(=O)Nc2cccc([N+](=O)[O-])c2)C(c2ccccc2Cl)C(C(=O)Nc2cccc([N+](=O)[O-])c2)=C(C)N1	-	-	EC50	-	H37Rv	-	<2.5 µg/mL
S=C(S)NN1CCCC1	-	-	MIC	-	PAS-R	-	0.8 µg/mL
CN[C@@H]1[C@H](O[C@H]2[C@H](O[C@H]3[C@H](O)[C@@H](O)[C@H](N=C(N)N)[C@@H](O)[C@@H]3N=C(N)N)O[C@@H](C)[C@]2(O)C=O)O[C@@H](CO)[C@H](O)[C@H]1O	-	-	MIC50	-	ATCC 35822 (isoniazid-resistant)	-	0.08 µM

For reference, 5 entries again:

{"SMILES": "C[C@@H]1CN(c2c(F)c(N)c3c(=O)c(C(=O)O)cn(C4CC4)c3c2F)C[C@H](C)N1", "read-out": "MIC", "strain or isolate": "Isolate 5", "value": "0.5 µg/mL"}
{"SMILES": "CCOC(=O)c1ccc2c(c1)nc(-c1ccc(N(C)C)cc1)n2CCN1CCCC1=O", "read-out": "EC50", "strain or isolate": "H37Rv", "read by": "resazurin / fluorescence", "value": ">100 µM"}
{"SMILES": "CCc1nc(N)nc(N)c1-c1ccc(Cl)cc1", "read-out": "MIC", "strain or isolate": "H37Rv", "read by": "resazurin / fluorescence", "value": ">100 µM"}
{"SMILES": "Cc1ccc(CCNC(=S)SC[C@H](NC(=O)CC[C@H](N)C(=O)O)C(=O)NCC(=O)O)cc1", "tested at": "6.25 µg/mL", "read-out": "inhibition", "strain or isolate": "H37Rv", "read by": "resazurin", "value": "9%"}
{"SMILES": "CCOC(=O)c1ccc2c(c1)nc(-c1ccccc1)n2CCN1CCCOC1", "read-out": "MIC", "strain or isolate": "H37Rv", "read by": "resazurin / fluorescence", "value": ">100 µM"}